Data from patent US11345912B2, “Directed evolution of multivalent glycopeptides that tightly bind to target proteins” (Brandeis University, priority 2013, dated 2022).

Molecular target: 2G12
Experiment: Binding curve and KD determination of 2G12-glycopeptide interaction (radiolabeled glycopeptide, protein G magnetic bead capture, scintillation counting)
Details: Table 4; ribosomally translated radiolabeled glycopeptide with His6/FLAG tag, room temperature, fit Fbound=(Fmax[2G12])/(KD+[2G12]); error = standard error of fit
Description: The resulting mRNAs were purified by denaturing PAGE or MEGAclear kit (Ambion), and 1 μM RNA was used in PURE system translation (reaction volume of translation varied). Typically, 25 μL of translated reaction was diluted with 100 μL of binding buffer (50 mM Tris-HCl, pH 7.8, 300 mM NaCl, 5 mM β-mercaptoethanol) and 25 μL of Ni-NTA agarose suspension (Qiagen), and tumbled at room temperature for 1 h. The resins were transferred to 0.22 μm spin-filter rinsing with 100 μL of bind buffer, and washed with 3×200 μL of bind buffer and 2×200 μL of wash buffer (50 mM Tris-HCl, pH 7.8, 5 mM β-mercaptoethanol). The bound peptides were eluted with 2×25 μL of 0.1% TFA. The eluted peptides were analyzed by MALDI-TOF MS, using α-Cyano-4-hydroxycinnamic acid matrix (Sigma), with or without desalting with ZipTip C18 resin (Millipore). […] To quantitate peptide yields, the radioactivities were measured by liquid scintillation counting. […]
Then, the solution was added to 0.12 mg of pre-equilibrated Dynabeads Protein G and tumbled at room temperature for 30 min. […] The radioactivities of the supernatant and wash solutions were measured by liquid scintillation counting as unbound fractions. […] The radioactivities of these solutions and suspensions were measured by liquid scintillation counting separately and the values were combined as apparent bound fractions. […]

## CC[C@H](C)[C@H](NC(=O)[C@H](CCCNC(=N)N)NC(=O)[C@H](CC(N)=O)NC(=O)CNC(=O)[C@H](CC(N)=O)NC(=O)[C@H](CC(C)C)NC(=O)[C@H](CCCCN)NC(=O)[C@H](CS)NC(=O)[C@H](CCCCN)NC(=O)[C@H](CC(C)C)NC(=O)[C@@H](NC(=O)[C@@H](NC(=O)[C@@H](NC(=O)[C@@H](NC(=O)[C@H](C)NC(=O)[C@H](CCc1cn(C2CCC(OC3O[C@H](CO[C@H]4O[C@H](CO[C@H]5O[C@H](CO)[C@@H](O)[C@H](O)[C@@H]5O[C@H]5O[C@H](CO)[C@@H](O)[C@H](O)[C@@H]5O)[C@@H](O)[C@H](O[C@H]5O[C@H](CO)[C@@H](O)[C@H](O)[C@@H]5O[C@H]5O[C@H](CO)[C@@H](O)[C@H](O)[C@@H]5O)[C@@H]4O)[C@@H](O)[C@H](O[C@H]4O[C@H](CO)[C@@H](O)[C@H](O)[C@@H]4O[C@H]4O[C@H](CO)[C@@H](O)[C@H](O)[C@@H]4O[C@H]4O[C@H](CO)[C@@H](O)[C@H](O)[C@@H]4O)[C@@H]3O)CC2)nn1)NC(=O)[C@@H]1CCCN1C(=O)[C@H](CCCCN)NC(=O)[C@H](CO)NC(=O)[C@H](Cc1ccc(O)cc1)NC(=O)[C@H](CC(C)C)NC(=O)[C@H](CC(N)=O)NC(=O)[C@H](CCc1cn(C2CCC(OC3O[C@H](CO[C@H]4O[C@H](CO[C@H]5O[C@H](CO)[C@@H](O)[C@H](O)[C@@H]5O[C@H]5O[C@H](CO)[C@@H](O)[C@H](O)[C@@H]5O)[C@@H](O)[C@H](O[C@H]5O[C@H](CO)[C@@H](O)[C@H](O)[C@@H]5O[C@H]5O[C@H](CO)[C@@H](O)[C@H](O)[C@@H]5O)[C@@H]4O)[C@@H](O)[C@H](O[C@H]4O[C@H](CO)[C@@H](O)[C@H](O)[C@@H]4O[C@H]4O[C@H](CO)[C@@H](O)[C@H](O)[C@@H]4O[C@H]4O[C@H](CO)[C@@H](O)[C@H](O)[C@@H]4O)[C@@H]3O)CC2)nn1)NC(=O)[C@@H](NC(=O)[C@@H](NC(=O)[C@H](CO)NC(=O)[C@@H]1CCCN1C(=O)[C@@H](NC(=O)[C@H](CC(N)=O)NC(=O)[C@H](CCCCN)NC(=O)[C@H](Cc1ccc(O)cc1)NC(=O)[C@H](CCc1cn(C2CCC(OC3O[C@H](CO[C@H]4O[C@H](CO[C@H]5O[C@H](CO)[C@@H](O)[C@H](O)[C@@H]5O[C@H]5O[C@H](CO)[C@@H](O)[C@H](O)[C@@H]5O)[C@@H](O)[C@H](O[C@H]5O[C@H](CO)[C@@H](O)[C@H](O)[C@@H]5O[C@H]5O[C@H](CO)[C@@H](O)[C@H](O)[C@@H]5O)[C@@H]4O)[C@@H](O)[C@H](O[C@H]4O[C@H](CO)[C@@H](O)[C@H](O)[C@@H]4O[C@H]4O[C@H](CO)[C@@H](O)[C@H](O)[C@@H]4O[C@H]4O[C@H](CO)[C@@H](O)[C@H](O)[C@@H]4O)[C@@H]3O)CC2)nn1)NC=O)[C@@H](C)CC)[C@@H](C)O)[C@@H](C)O)[C@@H](C)O)C(C)C)[C@@H](C)O)[C@@H](C)O)C(=O)N[C@@H](CO)C(=O)NCC(=O)N[C@@H](CO)C(=O)NCC(=O)N[C@@H](CO)C(=O)N[C@@H](CC(C)C)C(=O)NCC(=O)N[C@@H](Cc1c[nH]cn1)C(=O)N[C@@H](Cc1c[nH]cn1)C(=O)N[C@@H](Cc1c[nH]cn1)C(=O)N[C@@H](Cc1c[nH]cn1)C(=O)N[C@@H](Cc1c[nH]cn1)C(=O)N[C@@H](Cc1c[nH]cn1)C(=O)N[C@@H](CCCNC(=N)N)C(=O)N[C@@H](CC(=O)O)C(=O)N[C@@H](Cc1ccc(O)cc1)C(=O)N[C@@H](CCCCN)C(=O)N[C@@H](CC(=O)O)C(=O)N[C@@H](CC(=O)O)C(=O)N[C@@H](CC(=O)O)C(=O)N[C@@H](CC(=O)O)C(=O)N[C@@H](CCCCN)C(=O)O (stereo partly shown) [Clone 12G, KYKNIPSTTXNLYSKPXATVTTLKCKLNGNRIS]
  Kd: > 128 nM
